Assay results from patent publication US20090299044A1.

Biological target: T1, human Kv1.1 channel (human), Q09470
T1 chain: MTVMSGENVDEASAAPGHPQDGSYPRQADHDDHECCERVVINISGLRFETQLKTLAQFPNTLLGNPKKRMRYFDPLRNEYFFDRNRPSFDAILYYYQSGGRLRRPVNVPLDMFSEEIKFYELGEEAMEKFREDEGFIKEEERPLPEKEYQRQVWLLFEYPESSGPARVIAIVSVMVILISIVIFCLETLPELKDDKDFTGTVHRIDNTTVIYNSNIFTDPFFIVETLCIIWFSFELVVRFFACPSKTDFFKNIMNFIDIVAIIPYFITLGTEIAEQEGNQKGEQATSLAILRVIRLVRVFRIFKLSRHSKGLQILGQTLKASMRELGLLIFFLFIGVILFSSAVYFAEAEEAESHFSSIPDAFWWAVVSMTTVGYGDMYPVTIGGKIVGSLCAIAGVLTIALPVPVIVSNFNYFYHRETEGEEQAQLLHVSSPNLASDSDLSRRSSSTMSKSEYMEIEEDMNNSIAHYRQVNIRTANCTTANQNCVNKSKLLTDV
Assay: cell-based or functional assay
Conditions: not given

| Binder | IC50, Kv1.1 (IonWorks electrophysiology) [pM] |
| --- | --- |
| GVIINVKCKISRQCLEPCKKAAMRFGKCMNGKCHCTPK (modifications not checked) [OSK1 Alanine Analog G22A] | > 3000 |
| GVIINVKCKISRQCLEPCKKAGMRFGKCMAGKCHCTPK (modifications not checked) [OSK1 Alanine Analog N30A] | > 3000 |
| GVIINVKCKISRQCLEPCKKAGMRFGACMNGKCHCTPK (modifications not checked) [OSK1 Alanine Analog K27A] | > 3000 |

Each binder was assayed against human Kv1.3 channel (human), P22001 (assay: cell-based or functional assay). Conditions: not given.

| Binder | IC50, WB/IFNg [nM] | IC50, WB/IL-2 [nM] | IC50, Kv1.3 (IonWorks electrophysiology) [pM] | Average IC50, thapsigargin-induced IL-2 in 50% human whole blood [nM] |
| --- | --- | --- | --- | --- |
| GVIINVKCKISRQCLEPCKKAGMRFEKCMNGKCHCTPK (modifications not checked) [OSK1 Glutamic Acid Analog G26E] | 100 | 100 | – | – |
| GVIINVKCKISRQCLEPCKKAGMAFGKCMNGKCHCTPK (modifications not checked) [OSK1 Alanine Analog R24A] | – | – | > 3000 | – |
| GVIINVKCKASRQCLEPCKKAGMRFGKCMNGKCHCTPK (modifications not checked) [OSK1 Alanine Analog I10A] | – | 0.05 | – | – |
| GVIIEVKCKISRQCLEPCKKAGMRFGKCMNGKCHCTPK (modifications not checked) [OSK1 Glutamic Acid Analog N5E] | – | 0.1 | – | – |
| GVIINVKCKISRQCLEPCKKRGMRFGKCMNGKCHCTPK (modifications not checked) [OSK1 Arginine Analog A21R] | – | 0.09 | – | – |
| GVIINVKCKASRQCLEPCKKAGMRFGKCMNGKCHCTPK (modifications not checked) [OSK1 analog Ala-10 (SEQ ID No: 1408)] | – | – | – | 0.05 |
| GVIINVKCKISRQCLEPCKKAAMRFGKCMNGKCHCTPK (modifications not checked) [OSK1 Alanine Analog G22A] | – | – | > 3000 | – |
| GVIINVKCKISRQCLEPCKKAGMRFGKCRNGKCHCTPK (modifications not checked) [OSK1 Arginine Analog M29R] | – | – | 200 | – |
| GVIINVKCKIARQCLEPCKKAGMRFGKCMNGKCHCTPK (modifications not checked) [OSK1 Alanine Analog S11A] | – | 0.09 | – | – |
| GVIINVKCKISRQCLEPCKKAGMRFGKCMNGKCHCTPR (modifications not checked) [OSK1 Arginine Analog K38R] | 0.04 | – | – | – |
| GVIINVKCKISRQCLEPCKKAGMRFGKCMNGKCHCRPK (modifications not checked) [OSK1 Arginine Analog T36R] | 10.1 | – | – | – |
| GVIINVKCKISRQCLEPCKKAGMRFRKCMNGKCHCTPK (modifications not checked) [OSK1 Arginine Analog G26R] | 100 | – | – | – |
| GVIINVKCKISEQCLEPCKKAGMRFGKCMNGKCHCTPK (modifications not checked) [OSK1 Glutamic Acid Analog R12E] | 2 | – | – | – |

These binders were tested against human Kv1.3 voltage-gated potassium channel (human), P22001 (assay: cell-based or functional assay). Conditions: not given.

| Binder | Kv1.3 Selectivity (=Kv1.1/Kv.3 IC50) |
| --- | --- |
| GVIINVKCKIRRQCLEPCKKAGMRFGKCMNGKCHCTPK (modifications not checked) [OSK1 analogue S11R] | 228 |
| GVIINVKCKISRQCLEPCKKAGMRFGKCMAGKCHCTPK (modifications not checked) [OSK1 analogue N30A] | 14 |
| GVIINVKCKISRQCLEPCKKAGMRFGACMNGKCHCTPK (modifications not checked) [OSK1 analogue K27A] | 35 |
| GVIINVKCKISRQCLEPCKKAGMRFGKCRNGKCHCTPK (modifications not checked) [OSK1 analogue M29R] | 30 |
| GVIINVKCKISAQCLEPCKKAGMRFGKCMNGKCHCTPK (modifications not checked) [OSK1 analogue R12A] | 17 |
| GVIINVKCKISRQCLEPCKKAGMRFGKCMNGKCECTPK (modifications not checked) [OSK1 analogue H34E] | 30 |
| GVIINVKCKISRQCLEPCKKAGMRFGKCMNGKCACTPK (modifications not checked) [OSK1 analogue H34A] | 797 |
| GVIINVKCKISRQCLEPCKKAGMRFGKCMNGKCHCTEK (modifications not checked) [OSK1 analogue P37E] | 65 |
| GVIINVKCKISRQCLEPCKKAGMRFGKCANGKCHCTPK (modifications not checked) [OSK1 analogue M29A] | 105 |
| GVIINVKCKISRQCLEPCKKAGMRFGKCMNGKCHCEPK (modifications not checked) [OSK1 analogue T36E] | 44 |
| GVIINVKCKISRQCEEPCKKAGMRFGKCMNGKCHCTPK (modifications not checked) [OSK1 analogue L15E] | 342 |

Biological target: T1, human Kv1.1 channel (human), Q09470
Assay: whole cell patch clamp; WCPC
Conditions: chains peptide; modification not given

| Binder | IC50 [nM] |
| --- | --- |
| GVIINVKCKISAQCLEPCKKAGMRFGKCMNGKCHCTPK [OSK1[Ala-12]] | 0.44 |

The binders below were run against human Kv1.3 channel (human), P22001 (assay: whole cell patch clamp; WCPC). Conditions: chains peptide; modification not given.

| Binder | IC50 [nM] |
| --- | --- |
| GVIINVKCKISAQCLEPCKKAGMRFGKCMNGKCHCTPK [OSK1[Ala-12]] | 0.025 |

What follows are binders tested against human Kv1.3 channel (human), P22001 (assay: whole cell patch clamp; WCPC, IC50 Transit). Conditions: chains peptide; modification not given.

| Binder | IC50 [nM] |
| --- | --- |
| GVIINVKCKISAQCLEPCKKAGMRFGKCMNGKCHCTPK [OSK1[Ala-12]] | 0.025 |
